Assay results as given in patent publication US20240109955A1 (published 2024).

Tests used:
Assay in all cases: cell-based or functional assay
[1] = biological target: SARS-CoV-2 spike protein, Delta variant (B.1.617.2) (SARS-CoV-2, UniProt P0DTC2 14-1273)
[2] = biological target: SARS-CoV-2 spike protein, Omicron sublineage BA.4/5 (SARS-CoV-2, UniProt P0DTC2 14-1273)
[3] = biological target: SARS-CoV-2 spike (S) protein, Delta variant B.1.617.2 (SARS-CoV-2, UniProt P0DTC2 14-1273)
[4] = biological target: SARS-CoV-2 spike (S) protein, Omicron sublineage BA.4/5 (SARS-CoV-2, UniProt P0DTC2 14-1273)

| Binder | IC50, pseudovirus neutralization [1] [µM] | IC80, pseudovirus neutralization [1] [µM] | IC50, pseudovirus neutralization [2] [µM] | IC80, pseudovirus neutralization [2] [µM] | IC50, pseudovirus neutralization [3] [µM] | IC80, pseudovirus neutralization [3] [µM] | IC50, pseudovirus neutralization [4] [µM] | IC80, pseudovirus neutralization [4] [µM] |
| --- | --- | --- | --- | --- | --- | --- | --- | --- |
| A23-58.1HC/58.1LC_93VGLTG (antibody, V domains shown) VH: QMQLVQSGPEVKKPGTSVKVSCKASGFTFTSSAVQWVRQRQRLEWIGWIVVGSGNTNYAQKFQERVTITRDMSTSTAYMELSSLRSEDTAVYYCAAPNCSNVVCYDGFDIWGQGTMVTVSS VL: EIVLTQSPGTLSLSPGERATLSCRASQSVSSSYLAWYQQKPGQAPRLLIYSASSRATGIPDRFSGSGSGTDFTLTISRLEPEDFAVYFCQQYVGLTGWTFGQGTKVEIK | 0.0058 | 0.0124 | 0.003 | 0.0137 | – | – | – | – |
| MX830 (bispecific antibody) QTVVTQEPSFSVSPGGTVTLTCGLSSGSVSTAYFPSWYQQTPGQAPRTLIYGTNTRSSGVPDRFSGSILGNKAALTITGAQADDESDYYCVLYMGRGIVVFGGGTKLTVLGGSSGEIVLTQSPGTLSLSPGERATLSCRASQSVSSSYLAWYQQKPGQAPRLLIYSASSRATGIPDRFSGSGSGTDFTLTISRLEPEDFAVYFCQQYGGLTGWTFGQGTKVEIKGGGGSGGSGSGGGGSASGSGQMQLVQSGPEVKKPGTSVKVSCKASGFTFTSSAVQWVRQRQRLEWIGWIVVGSGNTNYAQKFQERVTITRDMSTSTAYMELSSLRSEDTAVYYCAAPNCSNVVCYDGFDIWGQGTMVTVSSGGSSGQVQLVESGGGVVQPGRSLRLSCAASGFTLSSYGMHWVRQAPGKGLEWVAVISYDGSNKYYVDSVKGRFTISRDNSKNTLYLQMNSLRAEDTAVYYCRWAYWELLPDYYYGMDVWGQGTTVTVSSASGGSGDKTHTCPPCPAPELLGGPSVFLFPPKPKDTLMISRTPEVTCVVVDVSHEDPEVKFNWYVDGVEVHNAKTKPREEQYNSYVVSVLTVLHQDWLNGKEYKCKVSNKALPAPIEKTISKAKGQPREPQVYTLPPSRDELTKNQVSLTCLVKGFYPSDIAVEWESNGQPENNYKTTPPVLDSDGSFFKKLTVDKSRWQQGNVFSCSVLHEALHSHYTQKSLSLSPG | 0.0637 | 0.125 | 0.533 | 4.63 | – | – | – | – |
| MX834 (other) chain 1: QTVVTQEPSFSVSPGGTVTLTCGLSSGSVSTAYFPSWYQQTPGQAPRTLIYGTNTRSSGVPDRFSGSILGNKAALTITGAQADDESDYYCVLYMGRGIVVFGGGTKLTVLGGSSGEIVLTQSPGTLSLSPGERATLSCRASQSVSSSYLAWYQQKPGQAPRLLIYSASSRATGIPDRFSGSGSGTDFTLTISRLEPEDFAVYFCQQYVGLTGWTFGQGTKVEIKGGGGSGGSGSGGGGSASGSGQMQLVQSGPEVKKPGTSVKVSCKASGFTFTSSAVQWVRQRQRLEWIGWIVVGSGNTNYAQKFQERVTITRDMSTSTAYMELSSLRSEDTAVYYCAAPNCSNVVCYDGFDIWGQGTMVTVSSGGSSGQVQLVESGGGVVQPGRSLRLSCAASGFTLSSYGMHWVRQAPGKGLEWVAVISYDGSNKYYVDSVKGRFTISRDNSKNTLYLQMNSLRAEDTAVYYCRWAYWELLPDYYYGMDVWGQGTTVTVSSASGGSGDKTHTCPPCPAPELLGGPSVFLFPPKPKDTLMISRTPEVTCVVVDVSHEDPEVKFNWYVDGVEVHNAKTKPREEQYNSYVVSVLTVLHQDWLNGKEYKCKVSNKALPAPIEKTISKAKGQPREPQVYTLPPCRDELTKNQVSLWCLVKGFYPSDIAVEWESNGQPENNYKTTPPVLDSDGSFFKKLTVDKSRWQQGNVFSCSVLHEALHSHYTQKSLSLSPG chain 2: QTVVTQEPSFSVSPGGTVTLTCGLSSGSVSTAYFPSWYQQTPGQAPRTLIYGTNTRSSGVPDRFSGSILGNKAALTITGAQADDESDYYCVLYMGRGIVVFGGGTKLTVLGGSSGEIVLTQSPGTLSLSPGERATLSCRASQSVSSSYLAWYQQKPGQAPRLLIYSASSRATGIPDRFSGSGSGTDFTLTISRLEPEDFAVYFCQQYVGLTGWTFGQGTKVEIKGGGGSGGSGSGGGGSASGSGQMQLVQSGPEVKKPGTSVKVSCKASGFTFTSSAVQWVRQRQRLEWIGWIVVGSGNTNYAQKFQERVTITRDMSTSTAYMELSSLRSEDTAVYYCAAPNCSNVVCYDGFDIWGQGTMVTVSSGGSSGQVQLVESGGGVVQPGRSLRLSCAASGFTLSSYGMHWVRQAPGKGLEWVAVISYDGSNKYYVDSVKGRFTISRDNSKNTLYLQMNSLRAEDTAVYYCRWAYWELLPDYYYGMDVWGQGTTVTVSSASGGSGDKTHTCPPCPAPELLGGPSVFLFPPKPKDTLMISRTPEVTCVVVDVSHEDPEVKFNWYVDGVEVHNAKTKPREEQYNSYVVSVLTVLHQDWLNGKEYKCKVSNKALPAPIEKTISKAKGQPREPQVYTLPPCRDELTKNQVSLWCLVKGFYPSDIAVEWESNGQPENNYKTTPPVLDSDGSFFKKLTVDKSRWQQGNVFSCSVLHEALHSHYTQKSLSLSPG | – | – | – | – | 0.00732 | 0.0113 | 0.0125 | 0.03 |
| MX837 (other) chain 1: QTVVTQEPSFSVSPGGTVTLTCGLSSGSVSTAYFPSWYQQTPGQAPRTLIYGTNTRSSGVPDRFSGSILGNKAALTITGAQADDESDYYCVLYMGRGIVVFGGGTKLTVLGGSSGEIVLTQSPGTLSLSPGERATLSCRASQSVSSSYLAWYQQKPGQAPRLLIYSASSRATGIPDRFSGSGSGTDFTLTISRLEPEDFAVYFCQQYVGLTGWTFGQGTKVEIKGGGGSGGSGSGGGGSASGSGQMQLVQSGPEVKKPGTSVKVSCKASGFTFTSSAVQWVRQRQRLEWIGWIVVGSGNTNYAQKFQERVTITRDMSTSTAYMELSSLRSEDTAVYYCAAPNCSNVVCYDGFDIWGQGTMVTVSSGGSSGQVQLVESGGGVVQPGRSLRLSCAASGFTLSSYGMHWVRQAPGKGLEWVAVISYDGSNKYYVDSVKGRFTISRDNSKNTLYLQMNSLRAEDTAVYYCRWAYWELLPDYYYGMDVWGQGTTVTVSSASGGSGDKTHTCPPCPAPELLGGPSVFLFPPKPKDTLMISRTPEVTCVVVDVSHEDPEVKFNWYVDGVEVHNAKTKPREEQYNSYVVSVLTVLHQDWLNGKEYKCKVSNKALPAPIEKTISKAKGQPREPQVYTLPPCRDELTKNQVSLWCLVKGFYPSDIAVEWESNGQPENNYKTTPPVLDSDGSFFKKLTVDKSRWQQGNVFSCSVLHEALHSHYTQKSLSLSPG chain 2: DIQMTQSPSSVSASVGDRVIITCRASQGISSWLAWYQQKPGKAPKVLIYDASSLQSGVPSRFSGSGYGTDFTLTISSLQPEDSATYYCQQAKSFPITFGQGTRLEIKGGSSGEIVLTQSPGTLSLSPGERATLSCRASQSVSSSYLAWYQQKPGQAPRLLIYSASSRATGIPDRFSGSGSGTDFTLTISRLEPEDFAVYFCQQYVGLTGWTFGQGTKVEIKGGGGSGGSGSGGGGSASGSGQMQLVQSGPEVKKPGTSVKVSCKASGFTFTSSAVQWVRQRQRLEWIGWIVVGSGNTNYAQKFQERVTITRDMSTSTAYMELSSLRSEDTAVYYCAAPNCSNVVCYDGFDIWGQGTMVTVSSGGSSGQVQLVESGGGVVQPGRSLRLSCAASGFTFSSYAFHWVRQAPGKGLEWVAVISYDGSNQYYADSVKGRFTISRDNSKNTLYLQMNSLRADDTAVYYCARDLAIAVAGTWHYYNGMDVWGQGTTVTVSSASGGSGDKTHTCPPCPAPELLGGPSVFLFPPKPKDTLMISRTPEVTCVVVDVSHEDPEVKFNWYVDGVEVHNAKTKPREEQYNSYVVSVLTVLHQDWLNGKEYKCKVSNKALPAPIEKTISKAKGQPREPQVCTLPPSRDELTKNQVSLSCAVKGFYPSDIAVEWESNGQPENNYKTTPPVLDSDGSFFLVSKLTVDKSRWQQGNVFSCSVLHEALHSHYTQKSLSLSPG | – | – | – | – | 0.0103 | 0.0113 | 0.00593 | 0.0175 |
| MX831 (bispecific antibody) DIQMTQSPSSVSASVGDRVIITCRASQGISSWLAWYQQKPGKAPKVLIYDASSLQSGVPSRFSGSGYGTDFTLTISSLQPEDSATYYCQQAKSFPITFGQGTRLEIKGGSSGEIVLTQSPGTLSLSPGERATLSCRASQSVSSSYLAWYQQKPGQAPRLLIYSASSRATGIPDRFSGSGSGTDFTLTISRLEPEDFAVYFCQQYGGLTGWTFGQGTKVEIKGGGGSGGSGSGGGGSASGSGQMQLVQSGPEVKKPGTSVKVSCKASGFTFTSSAVQWVRQRQRLEWIGWIVVGSGNTNYAQKFQERVTITRDMSTSTAYMELSSLRSEDTAVYYCAAPNCSNVVCYDGFDIWGQGTMVTVSSGGSSGQVQLVESGGGVVQPGRSLRLSCAASGFTFSSYAFHWVRQAPGKGLEWVAVISYDGSNQYYADSVKGRFTISRDNSKNTLYLQMNSLRADDTAVYYCARDLAIAVAGTWHYYNGMDVWGQGTTVTVSSASGGSGDKTHTCPPCPAPELLGGPSVFLFPPKPKDTLMISRTPEVTCVVVDVSHEDPEVKFNWYVDGVEVHNAKTKPREEQYNSYVVSVLTVLHQDWLNGKEYKCKVSNKALPAPIEKTISKAKGQPREPQVYTLPPSRDELTKNQVSLTCLVKGFYPSDIAVEWESNGQPENNYKTTPPVLDSDGSFFKKLTVDKSRWQQGNVFSCSVLHEALHSHYTQKSLSLSPG | 0.0292 | 0.084 | 0.0253 | 0.047 | – | – | – | – |
